Data source: PubChem BioAssay AID624099 (ICCB-Longwood, 2012)

Screen: 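Human genes that papillomavirus E2 requires to repress the HPV18 LCR promoter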 (primary screen)
Cells: human C33A cervical carcinoma cells (HPV-negative) stably expressing BPV1 E2 and an HPV18 LCR luciferase reporter
Reagents: siRNA pool against human genes, 40 nM
Time to read-out: 72 h
Measurement: 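Per-well luciferase luminescence, z-scored on each plate against the plate mean and SD with control wells left out, then averaged across three replicate plates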
Direction: mean z-score and z-score: higher = stronger reporter signal, weaker E2 silencing
Active means: 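Hit if mean z-score reaches 2 and two or more of three replicate z-scores also reach 2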
In all, the deposit lists about 21,000 reagents; below is a random part of them. 497 of them (2.4%) count as active. 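Higher z means weaker E2 silencing; only reporter increases were scored, and knock-downs that hurt cell survival may mask genuine repressor factors.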 A number with no mark means an inactive call. The numbers tell different reagents against one gene apart.

Gene,reagent,mean z-score,"z-score, replicate A","z-score, replicate B","z-score, replicate C"
IL9,1,-1.4,-1.22,-1.46,-1.51
PPOX,1,-0.16,0.28,0.13,-0.88
LOC339281 (retired record),1,0.46,0.29,0.62,0.48
CLDN23,1,1.62,1.3,1.81,1.74
MRGPRD,1,2.17 (active),1.94,2.4,2.17
LOC400547 (retired record),1,0.45,0.77,0.1,0.48
ADIG,1,0.03,0.09,0.04,-0.05
OR1L6,1,-0.02,0.21,0.21,-0.47
ZNF446,1,-0.26,-0.37,-0.12,-0.28
SATB1,1,-0.13,-0.34,-0.03,-0.01
SKIDA1,1,0.38,0.07,0.68,0.38
SEC16A,1,0.1,-0.04,0.15,0.2
ATMIN,1,-0.48,-0.71,-0.44,-0.29
TMX4,1,-0.29,-0.54,-0.11,-0.23
UBAC1,1,-0.95,-1.1,-0.99,-0.77
FKBP7,1,-0.26,-0.37,-0.28,-0.14
SFRP2,1,-2.42,-2.33,-2.67,-2.26
ADRA2B,1,-0.27,-0.46,-0.34,-0.02
CLDN7,1,-0.41,-0.39,-0.44,-0.39
SLC16A3,1,-1.12,-1.09,-1.23,-1.04
MMD2,1,0.76,0.93,0.69,0.67
RPL36P5,1,-0.03,0.28,-0.06,-0.31
RPL36P5,2,0.93,1.2,0.92,0.68
